Compound potency records, mixed from different reports. Data source: NIAID ChemDB in PubChem.

Common to all: growth or infection tests; organism: HIV-1; read-out: EC50

ECn: concentration that inhibits the pathogen or its effect by n%. An empty or dashed field is not shown. Lines come from different laboratories, so protocols vary.

smiles	changes	strain or isolate	read by	conditions	cell line	result
C#CCN(N=O)C(=O)NC(CCCNC(=O)OCc1ccccc1)C(=O)OCc1ccccc1	-	IIIB	cytopathic effect / XTT	-	CEM-IW + CEM	>28.2 µM
CCCCCCCCCCCCCCC(=O)Oc1ccc(OP(=O)(OCc2ccc(OC(=O)CCCC)cc2)OP(=O)(O)OP(=O)(O)OC[C@@H]2C=C[C@H](n3cc(C)c(=O)[nH]c3=O)O2)cc1	-	IIIB	syncytia / visual reading	-	CEM/TK-	0.69 µM
COc1cnc(-n2cnc(C)n2)c2[nH]cc(C(=O)C(=O)N3CCc4c(cnn4-c4ccncn4)C3)c12	nef	-	luciferase / single cycle	-	HeLa CD4	<0.5 µM
Cc1cc(S(N)(=O)=O)ccc1NC(=O)COc1ccc(Cl)cc1C(=O)c1cccc(C#N)c1	RT-V108I	HXB2	β-galactosidase	-	HeLa + HELA CD4+	<0.01 µM
COc1cc(O)c2c(=O)c3ccccc3n(C)c2c1	-	IIIB	p24 / ELISA	-	OM-10.1	>0.8 µg/mL
CC(=O)CC(c1ccccc1)c1c(O)c2ccccc2oc1=O	-	-	p24 / RT activity	-	ACH-2(HIV-1(IIIB)) + ACH2	0.001 µM
CC(C)C1=C2[C@H]3CC[C@@H]4[C@@]5(C)CC[C@H](OC(=O)[C@H]6C[C@@H](C(=O)O)C6(C)C)C(C)(C)[C@@H]5CC[C@@]4(C)[C@]3(C)CC[C@@]2(CC(=O)NC2(CNC(=O)c3ccc(Cl)cc3)CC2)CC1=O	-	92HT599	p24 / ELISA	-	MT-2	<1 µM
Cc1cc(C#N)cc(C)c1Oc1nc(Nc2ccc(C#N)cc2)nc(N)c1Br	N348I	-	-	-	TZM-bl	0.009 µM
O=C(O)C(=O)/C=C(\O)c1cc(Cc2ccccc2F)cn(Cc2cccc(Cl)c2)c1=O	-	-	-	-	MAGI	0.7 µM
O=c1[nH]c2c(c(=O)[nH]1)CCC2	-	BRU	cytopathic effect / MTT	-	CEM-C113 + CEM/C113	>30 µg/mL
COCc1nc(Nc2ccc(C#N)cc2)nc(Nc2c(C)cc(/C=C/C#N)cc2C)c1C(=O)N(C)CCN(C)C	-	K103N + Y181C	-	-	MT4 CMV-EGFP	0.331 µM
O=c1[nH]c(=S)c2c(n1COCc1ccccc1)CCCC2	-	BRU	cytopathic effect / MTT	-	CEM-C113 + CEM/C113	>30 µg/mL
O=S(=O)(c1cccc2cnccc12)N1CCNCC1	-	IIIB	p24 / ELISA	-	MOLT-4/IIIB + MOLT-4	>13.7 µg/mL
COC(=O)CNc1c(C(=O)NCc2ccc(F)cc2F)c(=O)n(O)c2ncccc12	N155H	-	luciferase	pseudotyped	HOS	0.19 µM
COCc1nc(Nc2ccc(C#N)cc2)nc(Nc2c(C)cc(/C=C/C#N)cc2C)c1C(=O)N1CCCC(C(N)=O)C1	-	IIIB	-	-	MT4 CMV-EGFP	0.0537 µM
CC(C)C1=C2[C@H]3CC[C@@H]4[C@@]5(C)CC[C@H](OC(=O)[C@H]6C[C@@H](C(=O)O)C6(C)C)C(C)(C)[C@@H]5CC[C@@]4(C)[C@]3(C)CC[C@@]2([C@@H](O)CNC(=O)C(C)(C)NC(=O)c2ccc(Cl)cc2O[C@H]2CCOC2)CC1=O	-	92HT599	p24 / ELISA	-	MT-2	<1 µM
CSc1nc(=O)n(COCCO)c2c1CCCC2	-	BRU	cytopathic effect / MTT	-	CEM-C113 + CEM/C113	>30 µg/mL
C#CCN(N=O)C(=O)NC(CCCCNC(=O)OCc1ccccc1)C(=O)OCc1ccccc1	-	IIIB	cytopathic effect / XTT	-	CEM-IW + CEM	>29.1 µM
CSCO[C@]1(C)COC(C)(CC(=O)OC[C@@H]2C=C[C@H](n3cnc4c(N)ncnc43)O2)C1	-	-	cytopathic effect	-	CEM + CEM/O	50 µM
[N-]=[N+]=NCCOCn1c2c(c(=O)[nH]c1=O)CCC2	-	BRU	cytopathic effect / MTT	-	CEM-C113 + CEM/C113	>30 µg/mL
O=C(O)C(=O)/C=C(\O)c1cc(Cc2ccc(F)cc2)cn(Cc2cccc(F)c2)c1=O	-	-	-	-	MAGI	1 µM
CC(C)C1=C2[C@H]3CC[C@@H]4[C@@]5(C)CC[C@H](OC(=O)[C@H]6C[C@@H](C(=O)O)C6(C)C)C(C)(C)[C@@H]5CC[C@@]4(C)[C@]3(C)CC[C@@]2(CCNCc2nc3ccccc3[nH]2)CC1=O	-	92HT599	p24 / ELISA	-	MT-2	<1 µM
CSc1nc(=O)n(COCCO)c2c1CCC2	-	BRU	cytopathic effect / MTT	-	CEM-C113 + CEM/C113	>30 µg/mL
COCc1nc(Nc2ccc(C#N)cc2)nc(Nc2c(C)cc(/C=C/C#N)cc2C)c1C(=O)NCCNC(C)=O	-	K103N + Y181C	-	-	MT4 CMV-EGFP	0.0263 µM
CNC(=O)c1nc([C@]2(C)CSC([C@]3(C)CSC([C@]4(C)CSC(/C=C/c5ccccc5)=N4)=N3)=N2)oc1C	-	IIIB	syncytia	-	MOLT-4/IIIB + MOLT-4	>4.7 µM
COCc1nc(Nc2ccc(C#N)cc2)nc(Nc2c(C)cc(/C=C/C#N)cc2C)c1C(=O)NCCc1cccs1	-	L1001+K103N	-	-	MT4 CMV-EGFP	0.214 µM
C[C@H](NC(=O)[C@@H]1CCCN1C(=O)[C@@H](NC(=O)[C@@H](N)[C@@H](C)O)[C@@H](C)O)C(=O)O	-	JR-CSF	p24	7 d	PBMC (PHA stimulated) + PBMC	>0.1 µM
CC(C)C1=C2[C@H]3CC[C@@H]4[C@@]5(C)CC[C@H](OC(=O)[C@H]6C[C@@H](C(=O)O)C6(C)C)C(C)(C)[C@@H]5CC[C@@]4(C)[C@]3(C)CC[C@@]2([C@@H](O)CNCC(C)(C)NC(=O)c2ccncc2)CC1=O	-	92HT599	p24 / ELISA	-	MT-2	<1 µM
C#CCNC(=O)NC(CCCNC(=O)OCc1ccccc1)C(=O)OCc1ccccc1	-	IIIB	cytopathic effect / XTT	-	CEM-IW + CEM	>99.4 µM
Cc1ccc(N(C)C(=O)[C@H](Cc2ccccc2)NC(=O)CNC(=O)c2ccccc2)cc1	-	NL4-3	GFP	-	TZM-gfp	1.6 µM
Cc1cc(C#N)cc(C(=O)c2cc(Cl)ccc2OCC(=O)Nc2ccc(S(N)(=O)=O)cc2C)c1	RT-P236L	HXB2	β-galactosidase	-	HeLa + HELA CD4+	<0.01 µM
CN(C(=O)[C@H](Cc1ccccc1)NC(=O)CNC(=O)c1ccccc1)c1ccc(Cl)cc1	-	NL4-3	XTT	-	TZM-gfp	0.88 µM
O=c1[nH]c(=S)c2c(n1COCc1ccccc1)CCC2	-	BRU	cytopathic effect / MTT	-	CEM-C113 + CEM/C113	>30 µg/mL
CC(C)C1=C2[C@H]3CC[C@@H]4[C@@]5(C)CC[C@H](OC(=O)[C@H]6C[C@@H](C(=O)O)C6(C)C)C(C)(C)[C@@H]5CC[C@@]4(C)[C@]3(C)CC[C@@]2([C@@H](O)CNCCN2CCS(=O)(=O)CC2)CC1=O	-	92HT599	p24 / ELISA	-	MT-2	<1 µM
COc1cccc2[nH]c3ccccc3c(=O)c12	-	IIIB	p24 / ELISA	-	OM-10.1	>17 µg/mL
Cc1[nH]c2ccccc2c1CCC(=O)N[C@@H](Cc1ccccc1)C(=O)N(C)c1ccccc1	-	NL4-3	XTT	-	TZM-gfp	0.61 µM
CCCCCCCCCCCCCC(=O)OCC/C(SS/C(CCOC(=O)CCCCCCCCCCCCC)=C(\C)N(C=O)Cc1cnc(C)nc1N)=C(/C)N(C=O)Cc1cnc(C)nc1N	-	JRFL(NSI/MT)	p24	-	PBMC(CXCR4 CCR5) + PBMC	14.7 µM
Cc1cc(S(N)(=O)=O)ccc1NC(=O)COc1ccc(Cl)cc1C(=O)c1cc(F)cc(F)c1	RT-V106I	HXB2	β-galactosidase	-	HeLa + HELA CD4+	<0.01 µM
CC(C)C1=C2[C@H]3CC[C@@H]4[C@@]5(C)CC[C@H](OC(=O)[C@H]6C[C@@H](C(=O)O)C6(C)C)C(C)(C)[C@@H]5CC[C@@]4(C)[C@]3(C)CC[C@@]2([C@@H](O)CNC(=O)c2ccc(N3CCC(O)CC3)cc2)CC1=O	-	92HT599	p24 / ELISA	-	MT-2	<1 µM
Cc1cn([C@H]2C=C[C@@H](CO)O2)c(=O)[nH]c1=O	-	-	cytopathic effect	-	JM	40 µM
O=C(O)C(=O)/C=C(\O)c1cc(Cc2cccc(Cl)c2F)cn(Cc2cccc(Cl)c2F)c1=O	-	-	-	-	MAGI	2.4 µM
Nc1ccn([C@H]2CC[C@@H](CO)O2)c(=O)n1	D36G	NL4-3	β-galactosidase	-	-	0.392 µM
CC(C)C1=C2[C@H]3CC[C@@H]4[C@@]5(C)CC[C@H](OC(=O)[C@H]6C[C@@H](C(=O)O)C6(C)C)C(C)(C)[C@@H]5CC[C@@]4(C)[C@]3(C)CC[C@@]2([C@@H](O)CN(CCN(C)C)Cc2cc(C(C)C)n[nH]2)CC1=O	-	92HT599	p24 / ELISA	-	MT-2	<1 µM
CCCCCCCCCCCCCCC(=O)Oc1ccc(OP(=O)(OCc2ccc(OC(=O)CC)cc2)OP(=O)(O)OP(=O)(O)OC[C@@H]2C=C[C@H](n3cc(C)c(=O)[nH]c3=O)O2)cc1	-	IIIB	syncytia / visual reading	-	CEM/TK-	1.1 µM
O=C(O)C(=O)/C=C(\O)c1cc(Cc2ccccc2)cn(Cc2ccc(F)cc2F)c1=O	-	-	-	-	MAGI	0.6 µM
CC(C)C1=C2[C@H]3CC[C@@H]4[C@@]5(C)CC[C@H](OC(=O)[C@H]6C[C@@H](C(=O)O)C6(C)C)C(C)(C)[C@@H]5CC[C@@]4(C)[C@]3(C)CC[C@@]2(CC(=O)NCC(C)(C)NC(=O)c2cc(C(C)C)[nH]n2)CC1=O	-	92HT599	p24 / ELISA	-	MT-2	<1 µM
CCc1cc(C#N)cc(C(=O)c2cc(Cl)ccc2OCC(=O)Nc2ccc(S(N)(=O)=O)cc2C)c1	RT-G190A	HXB2	β-galactosidase	-	HeLa + HELA CD4+	<0.01 µM
Cc1cn(CC(=O)N[C@@H](Cc2ccccc2)C(=O)N(C)c2ccc(Cl)cc2)c(=O)[nH]c1=O	-	NL4-3	XTT	-	TZM-gfp	1.7 µM
O=C(Nc1ccc(Cl)cc1)N(CCCN1CCC(Cc2ccccc2)CC1)c1ccccc1	-	BaL	β-galactosidase	-	MAGI + MT-4	<0.16 µM
C[C@H](NC(=O)[C@@H]1CCCN1C(=O)[C@@H](NC(=O)[C@@H](NC(=O)[C@@H](N)CC(=O)O)[C@@H](C)O)[C@@H](C)O)C(=O)O	-	JR-CSF	p24	7 d	PBMC (PHA stimulated) + PBMC	>0.1 µM
C#CCN(N=O)C(=O)NCCCCC(NC(=O)OCc1ccccc1)C(=O)OCc1ccccc1	-	IIIB	cytopathic effect / XTT	-	CEM-IW + CEM	>10.8 µM
COCCNC(=O)c1c(COC)nc(Nc2ccc(C#N)cc2)nc1Nc1c(C)cc(/C=C/C#N)cc1C	-	K103N+Y101C	-	-	MT4 CMV-EGFP	0.0166 µM
Cc1cc2[nH]cnc2cc1NC(=O)COc1ccc(Cl)cc1C(=O)c1cc(F)cc(C(F)(F)F)c1	RT-V108I Y181C	HXB2	β-galactosidase	-	HeLa + HELA CD4+	<0.01 µM
CCN(C(=O)[C@H](Cc1ccccc1)NC(=O)CNC(=O)c1ccccc1)c1ccccc1	-	NL4-3	GFP	-	TZM-gfp	2.5 µM
CC(C)CCC[C@@H](C)[C@H]1CC[C@H]2[C@@H]3CC[C@H]4C[C@@H](CCC=C(c5cc(Cl)c(O)c(C(=O)O)c5)c5cc(Cl)c(O)c(C(=O)O)c5)CC[C@]4(C)[C@H]3CC[C@]12C	-	IIIB	syncytia	-	HuT-78 + HUT 78	25 µg/mL
Cc1cc(C#N)cc(C(=O)c2cc(Cl)ccc2OCC(=O)Nc2cnc(S(N)(=O)=O)cc2C)c1	RT-V108I	HXB2	β-galactosidase	-	HeLa + HELA CD4+	<0.01 µM
CN(N=O)C(=O)NCCCCC(NC(=O)OCc1ccccc1)C(=O)OCc1ccccc1	-	IIIB	cytopathic effect / XTT	-	CEM-IW + CEM	>39.8 µM
CCO/N=C(\c1ccc(Br)cc1)C1CCN(C2(C)CCN(C(=O)c3c(C)cc[n+]([O-])c3C)CC2)CC1	-	JR-FL	luciferase / entry	-	U87 (CD4+ CCR5+) + U87	0.018 µM
O=c1[nH]c(=O)n(COCc2ccccc2)c2c1CCC2	-	BRU	cytopathic effect / MTT	-	CEM-C113 + CEM/C113	>30 µg/mL
CC(C)C1=C2[C@H]3CC[C@@H]4[C@@]5(C)CC[C@H](OC(=O)[C@H]6C[C@@H](C(=O)O)C6(C)C)C(C)(C)[C@@H]5CC[C@@]4(C)[C@]3(C)CC[C@@]2([C@@H](O)CNC(=O)c2ccc(Cl)cc2OCCN2CCCCC2)CC1=O	-	92HT599	p24 / ELISA	-	MT-2	<1 µM
CCCCCCCCCCCCCCC(=O)Oc1ccc(COP(=O)(Oc2ccc(OC(=O)CCC(=O)OCCOCCOCCOC)cc2)OP(=O)(O)OP(=O)(O)OC[C@@H]2C=C[C@H](n3cc(C)c(=O)[nH]c3=O)O2)cc1	-	IIIB	syncytia / visual reading	-	CEM/TK-	1.3 µM
Cc1cc2cn[nH]c2cc1NC(=O)COc1ccc(Cl)cc1C(=O)c1cccc(C#N)c1	RT-Y181C	HXB2	β-galactosidase	-	HeLa + HELA CD4+	<0.01 µM
COCc1nc(Nc2ccc(C#N)cc2)nc(Nc2c(C)cc(/C=C/C#N)cc2C)c1C(=O)NCCN1CCOCC1	-	IIIB	-	-	MT4 CMV-EGFP	0.00389 µM

For reference, 4 entries again:

| smiles | changes | strain or isolate | read by | conditions | cell line | result |
|---|---|---|---|---|---|---|
| O=C(O)C(=O)/C=C(\O)c1cc(Cc2ccc(F)cc2)cn(Cc2cccc(F)c2)c1=O | - | - | - | - | MAGI | 1 µM |
| CSCO[C@]1(C)COC(C)(CC(=O)OC[C@@H]2C=C[C@H](n3cnc4c(N)ncnc43)O2)C1 | - | - | cytopathic effect | - | CEM + CEM/O | 50 µM |
| CC(C)C1=C2[C@H]3CC[C@@H]4[C@@]5(C)CC[C@H](OC(=O)[C@H]6C[C@@H](C(=O)O)C6(C)C)C(C)(C)[C@@H]5CC[C@@]4(C)[C@]3(C)CC[C@@]2(CCNCc2nc3ccccc3[nH]2)CC1=O | - | 92HT599 | p24 / ELISA | - | MT-2 | <1 µM |
| O=C(Nc1ccc(Cl)cc1)N(CCCN1CCC(Cc2ccccc2)CC1)c1ccccc1 | - | BaL | β-galactosidase | - | MAGI + MT-4 | <0.16 µM |